This note sets out measurements from PubChem BioAssay AID1533 (PCMD, 2009).

Sequences of proteins named here, by UniProt entry; tags and fusion partners are left off.
UniProt P9WH09, whole entry, looked up: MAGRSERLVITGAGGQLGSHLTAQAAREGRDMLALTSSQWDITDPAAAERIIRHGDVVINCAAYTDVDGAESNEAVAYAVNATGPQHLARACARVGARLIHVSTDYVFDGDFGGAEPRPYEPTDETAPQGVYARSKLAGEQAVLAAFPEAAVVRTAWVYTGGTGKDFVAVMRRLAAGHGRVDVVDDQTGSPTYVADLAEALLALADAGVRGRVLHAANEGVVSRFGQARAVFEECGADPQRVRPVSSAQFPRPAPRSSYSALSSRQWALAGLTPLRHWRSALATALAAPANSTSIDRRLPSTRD
UniProt P9WH11, whole entry, looked up: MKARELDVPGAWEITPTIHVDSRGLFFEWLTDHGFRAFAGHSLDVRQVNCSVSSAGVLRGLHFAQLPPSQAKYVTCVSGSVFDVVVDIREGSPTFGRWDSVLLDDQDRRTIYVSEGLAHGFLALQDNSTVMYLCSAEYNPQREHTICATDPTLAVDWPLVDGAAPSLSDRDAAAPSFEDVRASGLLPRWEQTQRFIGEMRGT

This is a selection; strong and weak results do not stand in their true shares. Active and inactive are the calls of the source. Rule as the data show it: active = inhibition mostly above about 34% (no sharp cut-off); inconclusive = no clear call, values can overlap the other calls; inactive = mostly below about 22%.

The target in this assay is dTDP-4-dehydrorhamnose reductase (Mycobacterium tuberculosis (strain ATCC 25618 / H37Rv)) + dTDP-4-dehydrorhamnose 3,5-epimerase (Mycobacterium tuberculosis (strain ATCC 25618 / H37Rv)) (UniProt P9WH09+P9WH11). In words: M. tuberculosis RmlC/RmlD coupled enzyme inhibitors, primary screen, biochemical, compound mixtures, 384-well, from 1536-well plates (AID 1533). Conditions: RmlC+RmlD coupled enzyme assay, percent inhibition; primary screen in compound mixtures; at 3.6 µM; hits give high values.
For the compound `CC(C)c1ccc(NC2CCN(C(=O)OC(C)(C)C)CC2)cc1`, the inhibition was inactive: 15.8%.

Turning to `COc1ccc(CN(CCCl)CCCl)cc1Cl`, the inhibition was inactive: 12.5%.

As for `CN(C)c1cccc(C(=O)NCC2(N3CCCCC3)CCCCC2)c1`, the inhibition was inactive: 3.48%.

Consider `O=C(NCC1(N2CCOCC2)CCCCC1)c1cc(=O)[nH]c2ccccc12`, for which the inhibition is inactive: -3.66%.

Take `COc1ccc(NC2CCN(C(=O)OC(C)(C)C)CC2)cc1`: the inhibition was inactive: -2.26%.

Take `CN1CCN(CCOC(=O)C(O)(c2ccccc2)c2ccccc2)CC1`: the inhibition is inactive: -8.5%.

Consider `N#CC1(Nc2ccccc2)CCN(CCc2ccccc2)CC1`, for which the inhibition was inactive: -2.4%.

On to `O=C(NCC1(N2CCCCC2)CCCCC1)c1cccc([N+](=O)[O-])c1`, for which the inhibition is inactive: 2.01%.

With `Cc1ccc(OCC(C)C)c(CN(CCCl)CCCl)c1`, the inhibition was inactive: 7.22%.

For `COc1ccc(NC2CCN(CCc3ccccc3)CC2)c(OC)c1`, the inhibition was inactive: -4.41%.

Take `CCOc1ccc(C)cc1CN(CCCl)CCCl`: the inhibition was inactive: 7.34%.

Turning to `O=C(OC1CN2CCC1CC2)C1c2ccccc2Oc2ccccc21` (stereo unspecified), the inhibition was inactive: 4.03%.

As to `N#CC1(Nc2ccccc2)CCN(Cc2ccccc2)CC1`, the inhibition is inactive: -7.31%.

As for `CCOC(=O)N1CCC(Nc2ccc(OC)cc2)CC1`, the inhibition is inactive: 3.76%.

For the compound `O=C(NCC1(N2CCOCC2)CCCCC1)c1cc2ccccc2o1`, the inhibition is inactive: -6.42%.

Consider `COc1ccc(C(=O)NCC2(N3CCCCC3)CCCCC2)c(OC)c1OC`, for which the inhibition is inactive: 3.63%.

`CCCOc1ccc(C)cc1CN(CCCl)CCCl`: the inhibition is inactive: 10.8%.

For the compound `COc1cc(OC)cc(C(=O)NCC2(N3CCOCC3)CCCCC2)c1`, the inhibition was inactive: -9.14%.

Regarding `CCC(CO)(C(=O)OC1CN2CCC1CC2)c1ccccc1` (stereo unspecified), the inhibition was inactive: 16.6%.

With `CC(C)(C)OC(=O)N1CCC(Nc2ccccc2)CC1`, the inhibition is inactive: 4.7%.

With `CCOc1ncccc1C(=O)NCC1(N2CCOCC2)CCCCC1`, the inhibition is inactive: 11.9%.

`CN(C)c1ccc(C(=O)NCC2(N3CCCCC3)CCCCC2)cc1`: the inhibition was inactive: 16.1%.

As for `N#Cc1ccc(C(=O)NCC2(N3CCCCC3)CCCCC2)cc1`, the inhibition is inactive: 10.6%.

With `O=C(OC1CN2CCC1CC2)C1c2ccccc2C=Cc2ccccc21` (stereo unspecified), the inhibition was inactive: -10.5%.

For the compound `N/C(=N\O)c1c(N)no[n+]1[O-]`, the inhibition was inactive: 3.81%.

Regarding `COc1ccc(C(=O)NCC2(N3CCOCC3)CCCCC2)cc1OC`, the inhibition was inactive: -14.7%.

What is called inhibition is the relative decrease from the control value, in per cent.
